A mixed list of measured activities; the numbers were collected in NIAID ChemDB.

Shared fields: tests on isolated targets; organism: HIV-1; target: Protease; endpoint: inhibition

Lines come from different laboratories, so protocols vary.

O=C1[C@H]2O[C@@H](CN1Cc1ccccc1)O[C@H]2C(=O)N1CCC[C@@H]1CO ; method: FRET ; dose: 1 µM ; value: 0%
O=C1OC(C(CCO)CCc2ccccc2)C(O)=C1C(c1ccccc1)C1CC1 ; method: fluorescence ; dose: 0.3 µM ; value: 13%
CC[C@H](C)COC(=O)[C@H](Cc1ccccc1)NC(=O)C(=O)N[C@@H](Cc1ccccc1)C(=O)OC[C@@H](C)CC ; method: absorbance ; dose: 10 µM ; value: 22%
CC[C@H](C)[C@H](NC(=O)[C@@H]1CCCN1C(=O)[C@H](O)[C@H](Cc1ccccc1)NC(=O)[C@H](CO)NC(=O)CCc1ccccc1)C(=O)N[C@H](C(N)=O)C(C)C ; dose: 5 µM ; value: 16.9%
COC(=O)[C@@H](NC(=O)CCC(=O)CCC(=O)N[C@H](C(=O)OC)C(C)C)C(C)C ; method: absorbance ; dose: 10 µM ; value: <10%
CC[C@@H](C)[C@H](NC(=O)[C@@H]1CCCN1C(=O)[C@@H](O)[C@H](CC1CCCCC1)NC(=O)[C@H](CC(N)=O)NC(=O)CCc1ccccc1)C(=O)N[C@H](C(N)=O)C(C)C ; dose: 5 µM ; value: 74.3%
O=C(NCCO)[C@@H]1O[C@@H]2CN(Cc3ccccc3)C(=O)[C@H]1O2 ; method: FRET ; dose: 10 µM ; value: 0%
C=CCC1(CCCc2ccccc2)OC(=O)C(C(c2ccccc2)C2CC2)=C1O ; method: fluorescence ; dose: 3.3 µM ; value: 100%
CC(C)COC(=O)C(Cc1ccccc1)NC(=O)C(=O)NC(Cc1ccccc1)C(=O)OCC(C)C ; method: absorbance ; dose: 10 µM ; value: 19%
CCCC1(CCC)OC(=O)C(C(c2cccc(NS(=O)(=O)c3ccc(C#N)cc3)c2)C(C)(C)C)=C1O ; method: fluorescence ; dose: 3.3 µM ; value: 100%
CC(C)COC(=O)[C@H](Cc1ccccc1)NC(=O)N[C@@H](Cc1ccccc1)C(=O)OCC(C)C ; method: absorbance ; dose: 10 µM ; value: <10%
CC[C@@H](C)[C@H](NC(=O)[C@@H]1CCCN1C(=O)[C@@H](O)[C@H](CC1CCCCC1)NC(=O)[C@H](COC)NC(=O)CCc1ccccc1)C(=O)N[C@H](C(N)=O)C(C)C ; dose: 5 µM ; value: 89.4%
O=C([C@@H]1O[C@]2(c3ccccc3)CN(C(c3ccccc3)c3ccccc3)C(=O)[C@H]1O2)N1CCCC1 ; method: FRET ; dose: 10 µM ; value: 0%
CCCC1(CCC)OC(=O)C(C(c2cccc(NS(=O)(=O)c3cn(C)cn3)c2)C(C)(C)C)=C1O ; method: fluorescence ; dose: 3.3 µM ; value: 100%
CC[C@@H](C)[C@H](NC(=O)CN(CC1CCCCC1)C(=O)[C@H](O)[C@H](Cc1ccccc1)NC(=O)[C@H](CC(N)=O)NC(=O)OC(C)(C)C)C(=O)NCC1CCCCC1 ; dose: 1000 µM ; value: 12.2%
COC(=O)[C@H](CC(C)C)N1C[C@@H]2O[C@H](C1=O)[C@H](C(=O)N1CCOCC1)O2 ; method: FRET ; dose: 10 µM ; value: 0%
CC(C)(C)NC(=O)C1CCCN1C(=O)[C@@H](O)[C@H](Cc1ccccc1)NC(=O)[C@H](CC(N)=O)NC(=O)OC(C)(C)C ; dose: 5 µM ; value: 31.2%
CC(C)COC(=O)[C@H](CC(C)C)NC(=O)C(=O)N[C@@H](CC(C)C)C(=O)OCC(C)C ; method: absorbance ; dose: 10 µM ; value: <10%
CC(C)(C)NC(=O)[C@@H]1CCCN1C(=O)[C@@H](O)[C@H](Cc1ccccc1)NC(=O)[C@H](CC(N)=O)NS(=O)(=O)c1cccc2ccccc12 ; dose: 0.05 µM ; value: 11.8%
CC(C)C[C@@H](CO)NC(=O)[C@H]1O[C@H]2CN(Cc3ccccc3)C(=O)[C@@H]1O2 ; method: FRET ; dose: 10 µM ; value: 0%

3 of the rows above, restated:

COC(=O)[C@H](CC(C)C)N1C[C@@H]2O[C@H](C1=O)[C@H](C(=O)N1CCOCC1)O2 ; method: FRET ; dose: 10 µM ; value: 0%
CC(C)COC(=O)C(Cc1ccccc1)NC(=O)C(=O)NC(Cc1ccccc1)C(=O)OCC(C)C ; method: absorbance ; dose: 10 µM ; value: 19%
CC[C@@H](C)[C@H](NC(=O)[C@@H]1CCCN1C(=O)[C@@H](O)[C@H](CC1CCCCC1)NC(=O)[C@H](CC(N)=O)NC(=O)CCc1ccccc1)C(=O)N[C@H](C(N)=O)C(C)C ; dose: 5 µM ; value: 74.3%

Inhibition is in % at the dose shown (toxicity tests: loss of growth or viability).